Experimental data reported in paper PMC7911889 (Viruses, 2021).

Target: SARS-CoV-2 3CL^pro (Severe acute respiratory syndrome coronavirus 2, UniProt P0DTD1)
Assay type: cell-based

SMILES: CC(C)CN(C[C@@H](O)[C@H](Cc1ccccc1)NC(=O)O[C@H]1CCOC1)S(=O)(=O)c1ccc(N)cc1
- Effect on luciferase reporter activity / 3CL^pro inhibition (in words): no significant increase or decrease in luciferase activity

SMILES: COc1cccc2c1C(=O)c1c(O)c3c(c(O)c1C2=O)C[C@@](O)(C(=O)CO)C[C@@H]3O[C@H]1C[C@H](N)[C@H](O)[C@H](C)O1 [doxorubicin]
- Effect on luciferase reporter activity / 3CL^pro inhibition (in words): did not result in any significant change in luciferase reporter activity
